Results on 30 compounds are retold here after PubChem BioAssay AID2391 (Southern Research Specialized Biocontainment Screening …, 2010).

The other results are listed elsewhere or left out. Potency and affinity values are given separately. Calls of active or inactive are those of the source. No rule for the calls is given here.

The test in a line: inhibition of RSV-induced cytopathic effect – HEp-2 cells, primary 10 µM value included (AID 2391). The note with it: at 10 µM, active compounds read high.
On to `CCOP(C)(=S)SCC(=O)NC(C)(CC)C(=O)O` (stereo not given), for which the CPE inhibition is inactive: 3.48%.

In the case of `CP(=O)(Nc1ccc2c(c1)OCCO2)Oc1ccccc1` (stereo not given), the CPE inhibition was inactive: 0.92%.

On to `Cc1ccccc1NP(C)(=O)Nc1ccccc1C`, for which the CPE inhibition is inactive: 0.88%.

Consider `CCN(CC)CC(O)COC(=O)C(O)(c1ccccc1)C1CCCCC1` (stereo not given), for which the CPE inhibition is inactive: -0.23%.

In the case of `COc1ccc(OP(C)(=O)Nc2ccc(Br)cc2)cc1` (stereo not given), the CPE inhibition was inactive: 0.82%.

As for `COc1ccccc1OP(C)(=O)Nc1c(C)n(C)n(-c2ccccc2)c1=O` (stereo not given), the CPE inhibition was inactive: 0.25%.

In the case of `O=C(OCCCN1CCCC1)C(O)(c1ccccc1)C1CCCCC1` (stereo not given), the CPE inhibition is inactive: 0.48%.

Take `CP(=O)(Oc1ccccc1)N1CCOC1=O` (stereo not given): the CPE inhibition was inactive: -0.69%.

In the case of `CCc1ccc(OP(C)(=O)Nc2cccnc2)cc1` (stereo not given), the CPE inhibition was inactive: 3.72%.

Regarding `COc1ccccc1OP(C)(=O)Nc1ccccc1Br` (stereo not given), the CPE inhibition was inactive: 0.36%.

For `CC(C)(C)c1ccc(OP(C)(=O)O)cc1`, the CPE inhibition was inactive: 0.89%.

In the case of `CP(=O)(Nc1ccc(Cl)cc1)Oc1ccc(F)cc1` (stereo not given), the CPE inhibition is inactive: 1.23%.

For the compound `CN(C)C(=O)c1c([N+](=O)[O-])cc([N+](=O)[O-])cc1[N+](=O)[O-]`, the CPE inhibition is inactive: -1.09%.

`Nc1ccc2c(ccc3cccnc32)n1.O=[N+]([O-])c1cc([N+](=O)[O-])c(O)c([N+](=O)[O-])c1`: the CPE inhibition was inactive: 10%.

In the case of `CCOC(=O)c1ccc(NP(C)(=O)Oc2ccc(Cl)cc2)cc1` (stereo not given), the CPE inhibition is inactive: 9.23%.

In the case of `CP(=O)(OC12CC3CC(CC(C3)C1)C2)OC12CC3CC(CC(C3)C1)C2`, the CPE inhibition was inactive: -1.15%.

For the compound `Cc1cc(C)cc(OP(C)(=O)Nc2cccc(C(F)(F)F)c2)c1` (stereo not given), the CPE inhibition is inactive: 13.2%.

In the case of `COc1ccccc1OP(C)(=O)Nc1ccc(C)c(C)c1` (stereo not given), the CPE inhibition was inactive: 1.82%.

Regarding `COc1ccc(OP(C)(=O)Nc2ccccc2Br)cc1` (stereo not given), the CPE inhibition is inactive: 1.49%.

Consider `Cc1nc2ccc3ccccc3c2o1.O=[N+]([O-])c1cc([N+](=O)[O-])c(O)c([N+](=O)[O-])c1`, for which the CPE inhibition is inactive: -0.72%.

Take `CP(=O)(Nc1ccc(Cl)cc1Cl)Oc1ccccc1` (stereo not given): the CPE inhibition was inactive: -0.4%.

In the case of `CP(=O)(OCCOc1ccccc1)OCCOc1ccccc1`, the CPE inhibition is inactive: 1.47%.

For `COc1ccccc1OP(C)(=O)Nc1ccc(Br)cc1` (stereo not given), the CPE inhibition was inactive: -0.5%.

For `COc1ccc(OP(C)(=O)Nc2ccccn2)cc1` (stereo not given), the CPE inhibition is inactive: -0.76%.

Regarding `CN(C)CCOC(=O)C(O)(c1ccccc1)C1CCCC1` (stereo not given), the CPE inhibition is inactive: 1.57%.

With `Cc1c(NP(C)(=O)Oc2ccc(C(C)C)cc2)c(=O)n(-c2ccccc2)n1C` (stereo not given), the CPE inhibition was inactive: 0.62%.

Take `O=[N+]([O-])c1cc([N+](=O)[O-])c(Nc2ccccn2)c([N+](=O)[O-])c1`: the CPE inhibition was inactive: -2.4%.

Consider `CP(=O)(Nc1ccccn1)Oc1ccccc1` (stereo not given), for which the CPE inhibition is inactive: 0.35%.

Take `COc1ccccc1OP(C)(=O)Nc1ccc(C)cc1C` (stereo not given): the CPE inhibition is inactive: 0.7%.

Turning to `CCc1ccc(OP(C)(=O)O)cc1`, the CPE inhibition is inactive: 2.35%.
